Experimental data: BindingDB's records for 26818694 (Brookhaven National Laboratory, 2016)

The chains behind the UniProt entries cited, without tags or fusion partners. Residues count along the entry.
UniProt B1JQH1, 1-175: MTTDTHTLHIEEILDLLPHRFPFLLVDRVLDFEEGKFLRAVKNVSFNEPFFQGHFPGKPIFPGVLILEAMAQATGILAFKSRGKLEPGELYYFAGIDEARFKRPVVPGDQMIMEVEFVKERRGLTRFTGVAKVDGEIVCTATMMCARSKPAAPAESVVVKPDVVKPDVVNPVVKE

Biological target: 3-hydroxyacyl-[acyl-carrier-protein] dehydratase FabZ [1-175] (Yersinia pestis, UniProt B1JQH1)
Details: pH 7

**Q.** `COc1cc(C)c2c(c1C=O)Oc1c(c(C)c(O)c3c1C(O)OC3=O)OC2=O` (centres undefined) [1,4-Dihydroxy-10-methoxy-5,8-dimethyl-3,7-dioxo-1,3-dihydro-7H-benzo[e]furo[3',4':3,4]benzo[b][1,4]dioxepine-11-carbaldehyde] was tested. Which IC50 did it give?
**A.** The IC50 was 13 µM.

**Q.** How did the IC50 turn out when `O=C1C=CC(=O)c2c(O)cccc21` [5-hydroxy-1,4-dihydronaphthalene-1,4-dione] was run?
**A.** Its IC50 is 5.3 µM.

**Q.** `Cc1cc(O)c2c(c1)C(=O)c1cc(O)cc(O)c1C2=O` [1,3,8-trihydroxy-6-methylanthra-9,10-quinone] was tested. Which IC50 did it give?
**A.** Its IC50 is 29.7 µM.

**Q.** How did the IC50 turn out when `COc1c(O)cc2oc3cc(O)c(CC=C(C)C)c(O)c3c(=O)c2c1CC=C(C)C` [Mangostin] was run?
**A.** The IC50 was 6.1 µM.
